Patent US20240109955A1 (published 2024)

B1: MX1043 (bispecific antibody)
chain: EIVLTQSPGTLSLSPGETATLSCRASQSFSSDLAWYQQKPGQAPRLLIYGASSRATGIPDRFSGSGSGTDFTLTISRLEPADFAVYYCQQYGSSPPVTFGGGTKVEIKGGSSGQTVVTQEPSFSVSPGGTVTLTCGLSSGSVSTAYFPSWYQQTPGQAPRTLIYGTNTRSSGVPDRFSGSILGNKAALTITGAQADDESDYYCVLYMGRGIVVFGGGTKLTVLGGGGSGGSGSGGGGSASGSGQVQLVESGGGVVQPGRSLRLSCAASGFTLSSYGMHWVRQAPGKGLEWVAVISYDGSNKYYVDSVKGRFTISRDNSKNTLYLQMNSLRAEDTAVYYCRWAYWELLPDYYYGMDVWGQGTTVTVSSGGSSGEVQLVESGGGLIQPGGSLRLSCAASGVIVSYNYMNWVRQAPGKGLEWVSVIYSGGSTFYADSVRGRFTISRDNSKNTLYLQMNSLRAEDTAVYYCARDLGPAGAFDIWGLGTMVTVSSASGGSGDKTHTCPPCPAPELLGGPSVFLFPPKPKDTLMISRTPEVTCVVVDVSHEDPEVKFNWYVDGVEVHNAKTKPREEQYNSYVVSVLTVLHQDWLNGKEYKCKVSNKALPAPIEKTISKAKGQPREPQVYTLPPSRDELTKNQVSLTCLVKGFYPSDIAVEWESNGQPENNYKTTPPVLDSDGSFFKKLTVDKSRWQQGNVFSCSVLHEALHSHYTQKSLSLSPG
B2: MX1055 (other)
chain 1: EIVMTQSPAILSVSPGERATLSCRASQSVAINLAWYQQKPGQAPRLLIYAASSRATGIPGRFSGSGSETNFTLTISSLQSGDFAVYYCQQYITWPPSYTFGQGTKLEIKGGSSGDTVMTQSPLSLPVTPGEPASISCRSSQSLLNSNGYNYLDWYVQKPGQSPQLLIYLGSNRASGVPDRFSGSGSGTDFTLKISRVEAEDVGVYYCMQPLQTPLFTFGPGTKVEIKGGGGSGGSGSGGGGSASGSGQVTLRESGPALVKPTQTLTLTCTFSGFSLSTRGVCVSWIRQPPGKALEWLAFIDWDDDKYYNTSLKTRLTISKDTSKNQVVLTMTNVHPVDTATYYCARISSHHGSSWCTTFDYWGQGALVTVSAGGSSGEVQLVESGGALIQPGGSLRLSCAASGIIVSANYMSWVRQAPGKGLEWVSVIYSGGSTFYADSVKGRFTISRDNSKNTLYLEMNSLRAEDTAVYYCARDAPILGVSDWGQGTLVTVSSASGGSGDKTHTCPPCPAPELLGGPSVFLFPPKPKDTLMISRTPEVTCVVVDVSHEDPEVKFNWYVDGVEVHNAKTKPREEQYNSYVVSVLTVLHQDWLNGKEYKCKVSNKALPAPIEKTISKAKGQPREPQVYTLPPCRDELTKNQVSLWCLVKGFYPSDIAVEWESNGQPENNYKTTPPVLDSDGSFFKKLTVDKSRWQQGNVFSCSVLHEALHSHYTQKSLSLSPG
chain 2: DTVMTQSPLSLPVTPGEPASISCRSSQSLLNSNGYNYLDWYVQKPGQSPQLLIYLGSNRASGVPDRFSGSGSGTDFTLKISRVEAEDVGVYYCMQPLQTPLFTFGPGTKVEIKGGSSGQTVVTQEPSFSVSPGGTVTLTCGLSSGSVSTAYFPSWYQQTPGQAPRTLIYGTNTRSSGVPDRFSGSILGNKAALTITGAQADDESDYYCVLYMGRGIVVFGGGTKLTVLGGGGSGGSGSGGGGSASGSGQVQLVESGGGVVQPGRSLRLSCAASGFTLSSYGMHWVRQAPGKGLEWVAVISYDGSNKYYVDSVKGRFTISRDNSKNTLYLQMNSLRAEDTAVYYCRWAYWELLPDYYYGMDVWGQGTTVTVSSGGSSGQVTLRESGPALVKPTQTLTLTCTFSGFSLSTRGVCVSWIRQPPGKALEWLAFIDWDDDKYYNTSLKTRLTISKDTSKNQVVLTMTNVHPVDTATYYCARISSHHGSSWCTTFDYWGQGALVTVSAASGGSGDKTHTCPPCPAPELLGGPSVFLFPPKPKDTLMISRTPEVTCVVVDVSHEDPEVKFNWYVDGVEVHNAKTKPREEQYNSYVVSVLTVLHQDWLNGKEYKCKVSNKALPAPIEKTISKAKGQPREPQVCTLPPSRDELTKNQVSLSCAVKGFYPSDIAVEWESNGQPENNYKTTPPVLDSDGSFFLVSKLTVDKSRWQQGNVFSCSVLHEALHSHYTQKSLSLSPG
B3: MX1089 (other)
chain 1: QTVVTQEPSFSVSPGGTVTLTCGLSSGSVSTAYFPSWYQQTPGQAPRTLIYGTNTRSSGVPDRFSGSILGNKAALTITGAQADDESDYYCVLYMGRGIVVFGGGTKLTVLGGSSGEIVMTQSPAILSVSPGERATLSCRASQSVAINLAWYQQKPGQAPRLLIYAASSRATGIPGRFSGSGSETNFTLTISSLQSGDFAVYYCQQYITWPPSYTFGQGTKLEIKGGGGSGGSGSGGGGSASGSGEVQLVESGGALIQPGGSLRLSCAASGIIVSANYMSWVRQAPGKGLEWVSVIYSGGSTFYADSVKGRFTISRDNSKNTLYLEMNSLRAEDTAVYYCARDAPILGVSDWGQGTLVTVSSGGSSGQVQLVESGGGVVQPGRSLRLSCAASGFTLSSYGMHWVRQAPGKGLEWVAVISYDGSNKYYVDSVKGRFTISRDNSKNTLYLQMNSLRAEDTAVYYCRWAYWELLPDYYYGMDVWGQGTTVTVSSASGGSGDKTHTCPPCPAPELLGGPSVFLFPPKPKDTLMISRTPEVTCVVVDVSHEDPEVKFNWYVDGVEVHNAKTKPREEQYNSYVVSVLTVLHQDWLNGKEYKCKVSNKALPAPIEKTISKAKGQPREPQVYTLPPCRDELTKNQVSLWCLVKGFYPSDIAVEWESNGQPENNYKTTPPVLDSDGSFFKKLTVDKSRWQQGNVFSCSVLHEALHSHYTQKSLSLSPG
chain 2: DTVMTQSPLSLPVTPGEPASISCRSSQSLLNSNGYNYLDWYVQKPGQSPQLLIYLGSNRASGVPDRFSGSGSGTDFTLKISRVEAEDVGVYYCMQPLQTPLFTFGPGTKVEIKGGSSGEIVLTQSPGTLSLSPGERATLSCRASQSVSSSYLAWYQQKPGQAPRLLIYSASSRATGIPDRFSGSGSGTDFTLTISRLEPEDFAVYFCQQYVGLTGWTFGQGTKVEIKGGGGSGGSGSGGGGSASGSGQMQLVQSGPEVKKPGTSVKVSCKASGFTFTSSAVQWVRQRQRLEWIGWIVVGSGNTNYAQKFQERVTITRDMSTSTAYMELSSLRSEDTAVYYCAAPNCSNVVCYDGFDIWGQGTMVTVSSGGSSGQVTLRESGPALVKPTQTLTLTCTFSGFSLSTRGVCVSWIRQPPGKALEWLAFIDWDDDKYYNTSLKTRLTISKDTSKNQVVLTMTNVHPVDTATYYCARISSHHGSSWCTTFDYWGQGALVTVSAASGGSGDKTHTCPPCPAPELLGGPSVFLFPPKPKDTLMISRTPEVTCVVVDVSHEDPEVKFNWYVDGVEVHNAKTKPREEQYNSYVVSVLTVLHQDWLNGKEYKCKVSNKALPAPIEKTISKAKGQPREPQVCTLPPSRDELTKNQVSLSCAVKGFYPSDIAVEWESNGQPENNYKTTPPVLDSDGSFFLVSKLTVDKSRWQQGNVFSCSVLHEALHSHYTQKSLSLSPG
B4: E12 (antibody, V domains shown)
VH: EVQLVESGGGLIQPGGSLRLSCAASGVIVSYNYMNWVRQAPGKGLEWVSVIYSGGSTFYADSVRGRFTISRDNSKNTLYLQMNSLRAEDTAVYYCARDLGPAGAFDIWGLGTMVTVSS
VL: EIVLTQSPGTLSLSPGETATLSCRASQSFSSDLAWYQQKPGQAPRLLIYGASSRATGIPDRFSGSGSGTDFTLTISRLEPADFAVYYCQQYGSSPPVTFGGGTKVEIK
B5: B8 (antibody, V domains shown)
VH: EVQLVESGGALIQPGGSLRLSCAASGIIVSANYMSWVRQAPGKGLEWVSVIYSGGSTFYADSVKGRFTISRDNSKNTLYLEMNSLRAEDTAVYYCARDAPILGVSDWGQGTLVTVSS
VL: EIVMTQSPAILSVSPGERATLSCRASQSVAINLAWYQQKPGQAPRLLIYAASSRATGIPGRFSGSGSETNFTLTISSLQSGDFAVYYCQQYITWPPSYTFGQGTKLEIK
B6: MX1069 (other)
chain 1: QTVVTQEPSFSVSPGGTVTLTCGLSSGSVSTAYFPSWYQQTPGQAPRTLIYGTNTRSSGVPDRFSGSILGNKAALTITGAQADDESDYYCVLYMGRGIVVFGGGTKLTVLGGSSGEIVLTQSPGTLSLSPGETATLSCRASQSFSSDLAWYQQKPGQAPRLLIYGASSRATGIPDRFSGSGSGTDFTLTISRLEPADFAVYYCQQYGSSPPVTFGGGTKVEIKGGGGSGGSGSGGGGSASGSGEVQLVESGGGLIQPGGSLRLSCAASGVIVSYNYMNWVRQAPGKGLEWVSVIYSGGSTFYADSVRGRFTISRDNSKNTLYLQMNSLRAEDTAVYYCARDLGPAGAFDIWGLGTMVTVSSGGSSGQVQLVESGGGVVQPGRSLRLSCAASGFTLSSYGMHWVRQAPGKGLEWVAVISYDGSNKYYVDSVKGRFTISRDNSKNTLYLQMNSLRAEDTAVYYCRWAYWELLPDYYYGMDVWGQGTTVTVSSASGGSGDKTHTCPPCPAPELLGGPSVFLFPPKPKDTLMISRTPEVTCVVVDVSHEDPEVKFNWYVDGVEVHNAKTKPREEQYNSYVVSVLTVLHQDWLNGKEYKCKVSNKALPAPIEKTISKAKGQPREPQVYTLPPCRDELTKNQVSLWCLVKGFYPSDIAVEWESNGQPENNYKTTPPVLDSDGSFFKKLTVDKSRWQQGNVFSCSVLHEALHSHYTQKSLSLSPG
chain 2: EIVLTQSPGTLSLSPGETATLSCRASQSFSSDLAWYQQKPGQAPRLLIYGASSRATGIPDRFSGSGSGTDFTLTISRLEPADFAVYYCQQYGSSPPVTFGGGTKVEIKGGSSGDTVMTQSPLSLPVTPGEPASISCRSSQSLLNSNGYNYLDWYVQKPGQSPQLLIYLGSNRASGVPDRFSGSGSGTDFTLKISRVEAEDVGVYYCMQPLQTPLFTFGPGTKVEIKGGGGSGGSGSGGGGSASGSGQVTLRESGPALVKPTQTLTLTCTFSGFSLSTRGVCVSWIRQPPGKALEWLAFIDWDDDKYYNTSLKTRLTISKDTSKNQVVLTMTNVHPVDTATYYCARISSHHGSSWCTTFDYWGQGALVTVSAGGSSGEVQLVESGGGLIQPGGSLRLSCAASGVIVSYNYMNWVRQAPGKGLEWVSVIYSGGSTFYADSVRGRFTISRDNSKNTLYLQMNSLRAEDTAVYYCARDLGPAGAFDIWGLGTMVTVSSASGGSGDKTHTCPPCPAPELLGGPSVFLFPPKPKDTLMISRTPEVTCVVVDVSHEDPEVKFNWYVDGVEVHNAKTKPREEQYNSYVVSVLTVLHQDWLNGKEYKCKVSNKALPAPIEKTISKAKGQPREPQVCTLPPSRDELTKNQVSLSCAVKGFYPSDIAVEWESNGQPENNYKTTPPVLDSDGSFFLVSKLTVDKSRWQQGNVFSCSVLHEALHSHYTQKSLSLSPG

What was measured:
[1] = target: SARS-CoV-2 spike protein, Omicron sublineage XBB (SARS-CoV-2, UniProt P0DTC2 14-1273); experiment: cell-based or functional assay
[2] = target: SARS-CoV-2 spike protein, Omicron sublineage XBB1.5 (SARS-CoV-2, UniProt P0DTC2 14-1273); experiment: cell-based or functional assay

Binder | IC50, pseudovirus neutralization [1] | IC80, pseudovirus neutralization [1] | IC50, pseudovirus neutralization [2] | IC80, pseudovirus neutralization [2]
B1 | 2.17 nM | 7.05 nM | 68.7 nM | 155 nM
B2 | 8.39 nM | 32.7 nM | 23.6 nM | 67.9 nM
B3 | 10.7 nM | 28.5 nM | 52.3 nM | 148 nM
B4 | 12.7 nM | 31.1 nM | 61.7 nM | 183 nM
B5 | 13.4 nM | 47.2 nM | 43.5 nM | 143 nM
B6 | 2.48 nM | 5.2 nM | 34.8 nM | 65.5 nM
